Compound potency records, mixed from different reports. Data source: NIAID ChemDB in PubChem.

All rows: growth or infection tests; species: Mycobacterium tuberculosis

Fold resistance has wild type as its base.

NC(=O)c1cnccn1 ; strain or isolate: Isolate 10257 monodrug-resistant ; read-out: MIC ; result: >300 µg/mL
O=C1CC(c2ccccc2)Oc2cc(F)ccc21 ; read-out: inhibition ; dose: 12.5 µg/mL ; result: 7%
CCOC(=O)Nc1cc(NC/C(=N/O)c2cccc(OC)c2)c([N+](=O)[O-])c(N)n1 ; strain or isolate: H37Rv ; read-out: EC50 ; result: >12.5 µg/mL
CC1COc2c(N3CCN(C)CC3)c(F)cc3c(=O)c(C(=O)O)cn1c23 ; strain or isolate: SMI12 ; read by: agar ; read-out: MIC ; result: 1 µg/mL
FC(F)(F)c1ccc(CNCCNCCN2CCOCC2)cc1 ; read-out: MIC ; result: 50 µM
Cc1ccccc1CSc1ncnc2nc[nH]c12 ; strain or isolate: H37Rv ; read-out: MIC90 ; result: >6.25 µg/mL
CCc1nc2ccc(C)cc2n1CCCCSc1ccc(Cl)cc1 ; changes: Rv1339 V90M ; strain or isolate: H37Rv ; read by: turbidity / fluorescence ; read-out: fold resistance ; result: 0.8
CCCCCOc1ccccc1NC(=O)OCC[NH+]1CCCC1 ; strain or isolate: My 331/88 ; read-out: MIC ; result: 62.5 µM
Cc1ccc(CSc2ncnc3nc[nH]c23)cc1 ; strain or isolate: H37Rv ; read-out: inhibition ; dose: 6.25 µg/mL ; result: 22%
CCc1nc2ccccc2n1CCCCOc1cccc(C)c1 ; changes: QcrB M342T ; strain or isolate: H37Rv ; read by: turbidity / fluorescence ; read-out: fold resistance ; result: 17
Cc1ccc(C)c(Sc2ccncc2)c1 ; strain or isolate: H37Ra ; read-out: MIC ; result: >12.8 µg/mL
COc1ccc(CNCCNC(c2ccccc2)c2ccccc2)c(OC)c1 ; read-out: MIC ; result: 50 µM
CCCCC(CC)CN1CN(CC(CC)CCCC)CC(C)(NCCNCCC(c2ccccc2)c2ccccc2)C1 ; read-out: MIC ; result: 12.5 µM
CC(=O)NC[C@H]1CN(c2ccc(N3CCOCC3)c(F)c2)C(=O)O1 ; strain or isolate: 11S ; read-out: MIC ; result: 0.5 µg/mL
O=c1nc(SCc2ccc(F)cc2C(F)(F)F)c2[nH]cnc2[nH]1 ; strain or isolate: H37Ra ; read-out: MIC ; result: 16 µg/mL
NCC[C@H](O)C(=O)N[C@@H]1C[C@H](N)[C@@H](O[C@H]2O[C@H](CN)[C@@H](O)[C@H](O)[C@H]2O)[C@H](O)[C@H]1O[C@H]1O[C@H](CO)[C@@H](O)[C@H](N)[C@H]1O ; strain or isolate: 5R ; read-out: MIC ; result: 2.5 µg/mL
CCOC(=O)Nc1cc(NC(C)C(O)c2ccc(O)cc2)c([N+](=O)[O-])c(N)n1 ; strain or isolate: H37Rv ; read-out: EC50 ; result: >12.5 µg/mL
CCC(CO)NCCNCCCc1ccccc1 ; read-out: MIC ; result: 9.4 µM
Cc1cccc(CSc2ncnc3nc[nH]c23)c1 ; strain or isolate: H37Rv ; read-out: inhibition ; dose: 6.25 µg/mL ; result: 0%
CO[C@H]1/C=C/O[C@@]2(C)Oc3c(C)c(O)c4c(O)c(c(/C=N/N5CCN(C)CC5)c(O)c4c3C2=O)NC(=O)/C(C)=C\C=C\[C@H](C)[C@H](O)[C@@H](C)[C@@H](O)[C@@H](C)[C@H](OC(C)=O)[C@@H]1C ; strain or isolate: PR819 ; read-out: MIC ; result: ≤0.02 µg/mL
CCCCCc1cc(OC)c2ccccc2n1 ; strain or isolate: MT1 ; read-out: MIC ; result: 21 µg/mL
CCCCCCCCCCCNCCN[C@H]1C[C@H]2C[C@@H]([C@@H]1C)C2(C)C ; read-out: MIC ; result: 50 µM
CCc1nc2ccc(C)cc2n1CCCCNc1ccccc1 ; changes: QcrB M342T ; strain or isolate: H37Rv ; read by: turbidity / fluorescence ; read-out: MIC90 ; result: 8.6 µM
COC(=O)Nc1cc(Cl)c([N+](=O)[O-])c(NC(=O)OC)n1 ; strain or isolate: H37Rv ; read-out: EC50 ; result: >12.5 µg/mL
NCC[C@H](O)C(=O)N[C@@H]1C[C@H](N)[C@@H](O[C@H]2O[C@H](CN)[C@@H](O)[C@H](O)[C@H]2O)[C@H](O)[C@H]1O[C@H]1O[C@H](CO)[C@@H](O)[C@H](N)[C@H]1O ; strain or isolate: MDR12 ; read by: broth dilution / resazurin ; read-out: MIC ; result: 1 µg/mL
CCCCC(CC)CN1CN(CC(CC)CCCC)CC(C)(NCCNCc2ccc3c(c2)OCO3)C1 ; read-out: MIC ; result: 12.5 µM
COc1ccc(OC)c(CCNCCNCc2ccc(C(F)(F)F)cc2)c1 ; read-out: MIC ; result: 12.5 µM
CCCCCCCCOc1cccc(NC(=O)OCCN2CCCCCC2)c1 ; strain or isolate: My 331/88 ; read-out: MIC ; result: 8 µM
COc1c(N2CCNC(C)C2)c(F)cc2c(=O)c(C(=O)O)cn(C3CC3)c12 ; strain or isolate: Strain 32 ; read-out: MIC ; result: 0.125 µg/mL
CCc1nc2ccccc2n1CCCCNc1ccc(-c2ccccn2)cc1 ; changes: Rv1339 V90M ; strain or isolate: H37Rv ; read by: turbidity / fluorescence ; read-out: MIC90 ; result: 6.3 µM
CCOC(=O)Nc1cc(NCCCCc2ccccc2)c(N)c(N)n1 ; strain or isolate: H37Rv ; read-out: EC50 ; result: <12.5 µg/mL
COc1ccc(CSc2ccccn2)cc1 ; strain or isolate: H37Ra ; read-out: MIC ; result: >12.8 µg/mL
CCCCCCCCCCOc1cccc(NC(=O)OCC[NH+]2CCCC2)c1 ; strain or isolate: My 331/88 ; read-out: MIC ; result: 32 µM
Cc1nnc(NS(=O)(=O)c2ccc(N=Nc3cc(N=Nc4ccccc4)c(N)nc3N)cc2)s1 ; strain or isolate: H37Rv ; read by: BACTEC ; read-out: MIC ; result: ≥12.5 µg/mL
C[C@H]1COc2c(N3CCN(C)CC3)c(F)cc3c(=O)c(C(=O)O)cn1c23 ; strain or isolate: Strain 102 ; read-out: MIC ; result: 8 µg/mL
CO[C@H]1/C=C/O[C@@]2(C)Oc3c(C)c(O)c4c(O)c(c5c(c4c3C2=O)NC2(CCN(CC(C)C)CC2)N=5)=NC(=O)/C(C)=C\C=C\[C@H](C)[C@H](O)[C@@H](C)[C@@H](O)[C@@H](C)[C@H](OC(C)=O)[C@@H]1C ; strain or isolate: Strain 135 (Q513K) ; read-out: MIC ; result: 32 µg/mL
COc1cccc(NC(=O)OCC[NH+]2CCCC2)c1 ; strain or isolate: My 331/88 ; read-out: MIC ; result: >1000 µM
CN[C@@H]1[C@H](O[C@H]2[C@H](O[C@H]3[C@H](O)[C@@H](O)[C@H](N=C(N)N)[C@@H](O)[C@@H]3N=C(N)N)O[C@@H](C)[C@]2(O)C=O)O[C@@H](CO)[C@H](O)[C@H]1O ; strain or isolate: TN933 (CB) ; read-out: MIC ; result: >2 µg/mL
CC(C)c1ccc2c(c1)CC[C@H]1[C@](C)(CNCCNCCc3ccccc3)CCC[C@]21C ; read-out: MIC ; result: 12.5 µM
Cc1ccc(CSc2ccncc2)cc1 ; strain or isolate: H37Rv ; read-out: inhibition ; dose: 6.25 µg/mL ; result: 6%
c1ccc(C(CCNCCNC(c2ccccc2)c2ccccc2)c2ccccc2)cc1 ; read-out: MIC ; result: 25 µM
c1ccc(CCCNCCNCCN2CCOCC2)cc1 ; read-out: MIC ; result: 50 µM
CCOc1cccc(NC(=O)OCC[NH+]2CCCC2)c1 ; strain or isolate: My 331/88 ; read-out: MIC ; result: 1000 µM
CN1c2ccccc2CCC1CCc1ccc2c(c1)OCO2 ; strain or isolate: MT3 ; read-out: MIC ; result: >100 µg/mL
CC12CCC(O1)C1C(=O)N(CC[N+](C)(C)C)C(=O)C12 ; strain or isolate: H37Rv ; read by: BACTEC ; read-out: MIC bound ; result: >12.5 µg/mL
CCCCC(CC)CN1CN(CC(CC)CCCC)CC(C)(NCCNCCOC)C1 ; read-out: MIC ; result: 6.25 µM
Nc1ncccc1/C=C/C(=O)c1ccc2c(ccc3ccccc32)c1 ; read-out: inhibition ; dose: 12.5 µg/mL ; result: 74%
CCCOc1cccc(NC(=O)OCCN2CCOCC2)c1 ; strain or isolate: My 331/88 ; read-out: MIC ; result: 1000 µM
O=C1CC(c2cccc(Cl)c2)Oc2ccccc21 ; read-out: EC50 ; result: >12.5 µg/mL
CCCCCCCCCCCNCCNCc1ccc(OC)cc1OC ; read-out: MIC ; result: 25 µM
CO[C@H]1/C=C/O[C@@]2(C)Oc3c(C)c(O)c4c(O)c(c(/C=N/N5CCN(C)CC5)c(O)c4c3C2=O)NC(=O)/C(C)=C\C=C\[C@H](C)[C@H](O)[C@@H](C)[C@@H](O)[C@@H](C)[C@H](OC(C)=O)[C@@H]1C ; strain or isolate: H37Rv ; read-out: MIC ; result: <2 µg/mL
CCCCCCCCCCOc1ccc(NC(=O)OCCN(C)C)cc1 ; strain or isolate: My 331/88 ; read-out: MIC ; result: 8 µM
c1coc(CNCCNCc2ccco2)c1 ; read-out: MIC ; result: 25 µM
CCOC(=O)Nc1cc2c([nH]c(=S)n2/N=C/c2ccccc2)c(N)n1 ; strain or isolate: H37Rv ; read-out: inhibition ; dose: 12.5 µg/mL ; result: 29%
CCCCC(CC)CN1CN(CC(CC)CCCC)CC(C)(NCCNCc2ccccc2)C1 ; read-out: MIC ; result: 25 µM
O=C(/C=C/c1cccc(O)c1)c1ccccc1O ; read-out: EC50 ; result: >12.5 µg/mL
CC[C@H]1OC(=O)[C@H](C)[C@@H](O[C@H]2C[C@@](C)(OC)[C@@H](O)[C@H](C)O2)[C@H](C)[C@@H](O[C@@H]2O[C@H](C)C[C@H](N(C)C)[C@H]2O)[C@](C)(OC)C[C@@H](C)C(=O)[C@H](C)[C@@H](O)[C@]1(C)O ; strain or isolate: 9120 ; read-out: MIC ; result: >4 µg/mL
CCCCC(CC)CN1CN(CC(CC)CCCC)CC(C)(NCCNCCCc2ccccc2)C1 ; read-out: MIC ; result: 25 µM
O=c1nc(SCc2cccc(Br)c2)c2[nH]cnc2[nH]1 ; strain or isolate: H37Rv ; read-out: inhibition ; dose: 6.25 µg/mL ; result: 32%
COc1ccc(CNCCNC23CC4CC(CC(C4)C2)C3)c(OC)c1 ; read-out: MIC ; result: 25 µM
NNC(=O)c1ccncc1 ; changes: INH resistant ; strain or isolate: Clinical isolate BRF 23 ; read by: resazurin ; read-out: MIC ; result: 2 µg/mL
CCCCC(CC)CN1CN(CC(CC)CCCC)CC(C)(NCCNC(C)CC)C1 ; read-out: MIC ; result: 6.25 µM
CCCCCCCCCOc1ccccc1NC(=O)OCCN(C)C ; strain or isolate: My 331/88 ; read-out: MIC ; result: 4 µM

A second listing of 9 rows from above:

compound | changes | strain or isolate | read by | read-out | dose | result
c1ccc(C(CCNCCNC(c2ccccc2)c2ccccc2)c2ccccc2)cc1 | - | - | - | MIC | - | 25 µM
FC(F)(F)c1ccc(CNCCNCCN2CCOCC2)cc1 | - | - | - | MIC | - | 50 µM
CCc1nc2ccc(C)cc2n1CCCCSc1ccc(Cl)cc1 | Rv1339 V90M | H37Rv | turbidity / fluorescence | fold resistance | - | 0.8
CCCCCCCCCOc1ccccc1NC(=O)OCCN(C)C | - | My 331/88 | - | MIC | - | 4 µM
NNC(=O)c1ccncc1 | INH resistant | Clinical isolate BRF 23 | resazurin | MIC | - | 2 µg/mL
CO[C@H]1/C=C/O[C@@]2(C)Oc3c(C)c(O)c4c(O)c(c(/C=N/N5CCN(C)CC5)c(O)c4c3C2=O)NC(=O)/C(C)=C\C=C\[C@H](C)[C@H](O)[C@@H](C)[C@@H](O)[C@@H](C)[C@H](OC(C)=O)[C@@H]1C | - | H37Rv | - | MIC | - | <2 µg/mL
Cc1cccc(CSc2ncnc3nc[nH]c23)c1 | - | H37Rv | - | inhibition | 6.25 µg/mL | 0%
CCOC(=O)Nc1cc2c([nH]c(=S)n2/N=C/c2ccccc2)c(N)n1 | - | H37Rv | - | inhibition | 12.5 µg/mL | 29%
CCCCC(CC)CN1CN(CC(CC)CCCC)CC(C)(NCCNCCCc2ccccc2)C1 | - | - | - | MIC | - | 25 µM

Blank or dashed fields: not listed here. MIC bound comes from a single tested concentration. Neighbouring rows are from separate reports. ECn: concentration that inhibits the pathogen or its effect by n%. Inhibition is in % at the dose shown (toxicity tests: loss of growth or viability). MIC50, MIC90 and the like: level of inhibition, or share of isolates inhibited.